One experiment addresses UreC (Klebsiella aerogenes). Kind of experiment: co-purification.
Another experiment has as its target (UreAC)3 (Klebsiella aerogenes). Kind of experiment: SEC.

B1: UreA (natural protein, Klebsiella aerogenes, UniProt P18316 1-100, looked up)
chain: MELTPREKDKLLLFTAALVAERRLARGLKLNYPESVALISAFIMEGARDGKSVASLMEEGRHVLTREQVMEGVPEMIPDIQVEATFPDGSKLVTVHNPII
For B1, in the experiment with UreC, the “apparent UreA:UreC ratio of gel band intensities” value was 0.5 UreA per UreC (apparent).

B2: UreB (natural protein, Klebsiella aerogenes, UniProt P18315 1-106, looked up)
chain: MIPGEYHVKPGQIALNTGRATCRVVVENHGDRPIQVGSHYHFAEVNPALKFDRQQAAGYRLNIPAGTAVRFEPGQKREVELVAFAGHRAVFGFRGEVMGPLEVNDE
With B2, the “apparent UreA:UreB:UreC ratio of gel band intensities in peak 1” value with (UreAC)3 is 0.5 UreB per UreC (apparent).

The values are drawn from publication PMC3202645 (Biochemistry, 2011).
